These are literature values, as cited in paper PMC6117091, “The C. difficile clnRAB operon initiates adaptations to the host environment in response to LL-37” (PLoS Pathogens, 2018).

The conditions of the data set: ref [6]–[8]; cited from earlier work.

Regarding `CC[C@H](C)[C@H](NC(=O)[C@H](CCCCN)NC(=O)[C@H](CCC(=O)O)NC(=O)[C@H](CCCCN)NC(=O)[C@H](CO)NC(=O)[C@H](CCCCN)NC(=O)[C@H](CCCNC(=N)N)NC(=O)[C@H](Cc1ccccc1)NC(=O)[C@H](Cc1ccccc1)NC(=O)[C@H](CC(=O)O)NC(=O)CNC(=O)[C@H](CC(C)C)NC(=O)[C@@H](N)CC(C)C)C(=O)NCC(=O)N[C@@H](CCCCN)C(=O)N[C@@H](CCC(=O)O)C(=O)N[C@@H](Cc1ccccc1)C(=O)N[C@@H](CCCCN)C(=O)N[C@@H](CCCNC(=N)N)C(=O)N[C@H](C(=O)N[C@H](C(=O)N[C@@H](CCC(N)=O)C(=O)N[C@@H](CCCNC(=N)N)C(=O)N[C@H](C(=O)N[C@@H](CCCCN)C(=O)N[C@@H](CC(=O)O)C(=O)N[C@@H](Cc1ccccc1)C(=O)N[C@@H](CC(C)C)C(=O)N[C@@H](CCCNC(=N)N)C(=O)N[C@@H](CC(N)=O)C(=O)N[C@@H](CC(C)C)C(=O)N[C@H](C(=O)N1CCC[C@H]1C(=O)N[C@@H](CCCNC(=N)N)C(=O)N[C@H](C(=O)N[C@@H](CCC(=O)O)C(=O)N[C@@H](CO)C(=O)O)[C@@H](C)O)C(C)C)[C@@H](C)CC)C(C)C)[C@@H](C)CC` [LL-37], the “concentration in neutrophil granules” value is given as ~ 6 μg/ml and the “level in the lungs of cystic fibrosis patients” value was 15 µg/mL.
